Results of unrelated studies side by side (data: NIAID ChemDB).

Shared fields: whole-cell or culture tests; organism: Aspergillus fumigatus; endpoint: zone

Zones are inhibition diameters on agar. Conditions beyond the fields shown may differ between rows.

CCC(C)CCCCCCCCCCC(=O)N[C@H]1C[C@@H](O)[C@@H](OC)NC(=O)C2[C@@H](O)[C@@H](C)CN2C(=O)C(CO)NC(=O)C([C@H](O)C(OC)c2ccc(O)cc2)NC(=O)NC(=O)[C@@H]2C[C@@H](O)CN2C(=O)[C@H]([C@@H](C)O)NC1=O ; strain: AF-1 ; read by: agar ; dose: 5 mg/mL ; value: 30 mm
CC(=O)C1=NN(c2ccccc2)C2=Nc3nccc(-c4nn(-c5ccccc5)cc4-c4ccc([N+](=O)[O-])cc4)c3C(=O)C12 ; read by: agar diffusion / agar ; dose: 2.5 mg/mL ; value: 11 mm
CCC(C)CCCCCCCCCCC(=O)N[C@H]1C[C@@H](O)[C@@H]([n+]2cc[nH]c2)NC(=O)C2[C@@H](O)[C@@H](C)CN2C(=O)C(CO)NC(=O)C([C@H](O)C(O)c2ccc(O)cc2)NC(=O)NC(=O)[C@@H]2C[C@@H](O)CN2C(=O)[C@H]([C@@H](C)O)NC1=O ; strain: AF-1 ; read by: agar ; dose: 1 mg/mL ; value: 20 mm
CCOC(=O)c1ccc(-c2nn(-c3ccccc3)cc2-c2ccc([N+](=O)[O-])cc2)nc1C ; read by: agar diffusion / agar ; dose: 5 mg/mL ; value: 6 mm
COc1ccccc1CN(CC(O)C[N+](C)(C)C)[C@@H]1[C@@H](O)[C@H](O[C@@H]2O[C@H](COCC(=O)O)[C@@H](O[C@@H]3C[C@H](COCC(=O)O)[C@@H](C)[C@H](O)[C@H]3N(Cc3ccccc3OC)CC(O)C[N+](C)(C)C)[C@H](O)[C@H]2N(Cc2ccccc2OC)CC(O)C[N+](C)(C)C)[C@@H](COCC(=O)O)O[C@H]1C ; strain: RCMB 02568 ; read by: agar diffusion ; dose: 1 mg/mL ; value: 17.2 mm
C[C@H]1[C@H](O)[C@@H](C)/C=C/C=C/C=C/C=C/C=C/C=C/C=C/[C@H](O[C@@H]2O[C@H](C)[C@@H](O)[C@H](N)[C@@H]2O)C[C@@H]2O[C@](O)(C[C@@H](O)C[C@@H](O)CC[C@H](O)[C@@H](O)C[C@@H](O)CC(=O)O[C@H]1C)C[C@H](O)[C@H]2C(=O)O ; read by: agar diffusion ; dose: 1 mg/disc ; value: 0 mm
Cc1ccc(-n2cc(-c3ccc([N+](=O)[O-])cc3)c(-c3ccnc4nncn34)n2)cc1 ; read by: agar diffusion / agar ; dose: 5 mg/mL ; value: 18 mm
COc1cccc(CN(CC(O)C[N+](C)(C)C)[C@@H]2[C@@H](O)[C@H](O[C@@H]3O[C@H](COCC(=O)O)[C@@H](O[C@@H]4C[C@H](COCC(=O)O)[C@@H](C)[C@H](O)[C@H]4N(Cc4cccc(OC)c4)CC(O)C[N+](C)(C)C)[C@H](O)[C@H]3N(Cc3cccc(OC)c3)CC(O)C[N+](C)(C)C)[C@@H](COCC(=O)O)O[C@H]2C)c1 ; strain: RCMB 02568 ; read by: agar diffusion ; dose: 1 mg/mL ; value: 13.6 mm
CN(C)/C=C/C(=O)c1nn(-c2ccccc2)cc1-c1ccc([N+](=O)[O-])cc1 ; read by: agar diffusion / agar ; dose: 1.25 mg/mL ; value: 0 mm
CCC(C)CCCCCCCCCCC(=O)N[C@H]1C[C@@H](O)[C@@H](SCC(=O)OC)NC(=O)C2[C@@H](O)[C@@H](C)CN2C(=O)C(CO)NC(=O)C([C@H](O)C(O)c2ccc(O)cc2)NC(=O)NC(=O)[C@@H]2C[C@@H](O)CN2C(=O)[C@H]([C@@H](C)O)NC1=O ; strain: AF-1 ; read by: agar ; dose: 5 mg/mL ; value: 29 mm
CCOC(=O)C1=NN(c2ccccc2)C2=Nc3nccc(-c4nn(-c5ccccc5)cc4-c4ccc([N+](=O)[O-])cc4)c3C(=O)C12 ; read by: agar diffusion / agar ; dose: 1.25 mg/mL ; value: 2 mm
C[C@H]1[C@H](O)[C@@H](C)/C=C/C=C/C=C/C=C/C=C/C=C/C=C/[C@H](O[C@@H]2O[C@H](C)[C@@H](O)[C@H](N)[C@@H]2O)C[C@@H]2O[C@](O)(C[C@@H](O)C[C@@H](O)CC[C@H](O)[C@@H](O)C[C@@H](O)CC(=O)O[C@H]1C)C[C@H](O)[C@H]2C(=O)O ; strain: RCMB 02568 ; read by: agar diffusion ; dose: 1 mg/mL ; value: 23.7 mm
CCC(C)CCCCCCCCCCC(=O)N[C@H]1C[C@@H](O)[C@@H](N=[N+]=[N-])NC(=O)C2[C@@H](O)[C@@H](C)CN2C(=O)C(CO)NC(=O)C([C@H](O)C(N=[N+]=[N-])c2ccc(O)cc2)NC(=O)NC(=O)[C@@H]2C[C@@H](O)CN2C(=O)[C@H]([C@@H](C)O)NC1=O ; strain: AF-1 ; read by: agar ; dose: 1 mg/mL ; value: 17 mm
C[C@@H]1[C@@H](COCC(=O)O)C[C@@H](O[C@H]2[C@H](O)[C@@H](N(Cc3ccccc3Cl)CC(O)C[N+](C)(C)C)[C@H](O[C@H]3[C@H](O)[C@@H](N(Cc4ccccc4Cl)CC(O)C[N+](C)(C)C)[C@H](C)O[C@@H]3COCC(=O)O)O[C@@H]2COCC(=O)O)[C@H](N(Cc2ccccc2Cl)CC(O)C[N+](C)(C)C)[C@H]1O ; strain: RCMB 02568 ; read by: agar diffusion ; dose: 1 mg/mL ; value: 17.5 mm
CCC(C)CCCCCCCCCCC(=O)N[C@H]1C[C@@H](O)[C@@H](S(=O)(=O)CC(=O)OC)NC(=O)C2[C@@H](O)[C@@H](C)CN2C(=O)C(CO)NC(=O)C([C@H](O)C(O)c2ccc(O)cc2)NC(=O)NC(=O)[C@@H]2C[C@@H](O)CN2C(=O)[C@H]([C@@H](C)O)NC1=O ; strain: AF-1 ; read by: agar ; dose: 5 mg/mL ; value: 27 mm

The last 2 rows once more:

SMILES,strain,read by,dose,value
C[C@@H]1[C@@H](COCC(=O)O)C[C@@H](O[C@H]2[C@H](O)[C@@H](N(Cc3ccccc3Cl)CC(O)C[N+](C)(C)C)[C@H](O[C@H]3[C@H](O)[C@@H](N(Cc4ccccc4Cl)CC(O)C[N+](C)(C)C)[C@H](C)O[C@@H]3COCC(=O)O)O[C@@H]2COCC(=O)O)[C@H](N(Cc2ccccc2Cl)CC(O)C[N+](C)(C)C)[C@H]1O,RCMB 02568,agar diffusion,1 mg/mL,17.5 mm
CCC(C)CCCCCCCCCCC(=O)N[C@H]1C[C@@H](O)[C@@H](S(=O)(=O)CC(=O)OC)NC(=O)C2[C@@H](O)[C@@H](C)CN2C(=O)C(CO)NC(=O)C([C@H](O)C(O)c2ccc(O)cc2)NC(=O)NC(=O)[C@@H]2C[C@@H](O)CN2C(=O)[C@H]([C@@H](C)O)NC1=O,AF-1,agar,5 mg/mL,27 mm